Measurements published in PMC4326804.

Target: His6-tagged nucleocapsid (N) protein of tomato spotted wilt virus (TSWV) (tomato spotted wilt virus (Yunnan isolate))
Experiment: native gel or EMSA; 4-16% discontinuous blue native PAGE at 4 °C, cathode buffer 100 mM histidine pH 8.0 with 0.002% Coomassie G-250; purified N protein without PEI treatment (carries E. coli RNA); self-association

His6-tagged nucleocapsid (N) protein of tomato spotted wilt virus (TSWV) (natural protein)
stoichiometry N: 2
